Results: patent US20220275059A1 (HARBOUR ANTIBODIES, published 2022)

Biological target: MERS-S on pseudotyped VSV particles (MERS-S carrying a 16-a.a. cytoplasmic tail truncation) (MERS-CoV, UniProt K9N5Q8 18-1337)
Assay: cell-based or functional assay

Binder	50% inh titer, MERS-S VSV ps., column Human IgG MAb [µg/mL]
1.10f3 (antibody, V domains shown) VH: QVQLVESGGGVVQPGRSLRLSCKASGFTFRGYGMHWVRQAPGKGLEWVTVIWHDASNKYYVDSVKGRFSISRDNSKNTLYLQMNSLRAEDTAVYYCARDAGLSFDIWGQGTMVTVSS VL: not shown	> 20
3.5g6 (antibody, V domains shown) VH: QVQLQQSGPGLVKPSQTLSLTCAISGHSVSSNSADWNWIRQSPSRGLEWLGRTYCRSKCYNDYAVSVKSRITINPDTSKNQFSLQLNPVTPEDTAVYYCARSLGSGTYPFDSWGQGTLVTVSS VL: DIQMTQSPSSLSASVGDRVTITCRASQRISRFLNWYQQTPGKAPKFLIYAASSLQSGVPSRFSGSGSGTDFTLTISSLQPEDFATYYCQQSYSTPLTFGGGTTVEIKR	> 20
